Tested on: Zika virus
Experiment: Antiviral activity against Zika virus 976 Uganda infected in human HepG2 cells assessed as protection against viral infection by measuring cell survival at 100 uM measured after 4 days by CellTiter-Glo luminescent cell viability assay relative to control
Conditions: time 4 day, strain 976 Uganda

NC(=O)c1ncn([C@@H]2O[C@H](CO)[C@@H](O)[C@H]2O)n1 [RIBAVIRIN]
Survival: 82%

— ChEMBL document CHEMBL4725430, “Discovery of Zika Virus NS2B/NS3 Inhibitors That Prevent Mice from Life-Threatening Infection and Brain Damage” (ACS Med Chem Lett, 2020)
